# Potato spindle tuber viroid, loop 6: variant abundance in plants

Reference: Wu et al. 2024, doi:10.1371/journal.ppat.1012142.

Region: loop 6 of PSTVd (intermediate strain), upper and lower strand joined, each 5' to 3', the first 5 letters being the upper strand, closing pairs included. Wild type: UGACCGCGAG. Varied positions (N): UNNNCGNNNG.

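A pool of all variants was put on leaves of three Nicotiana benthamiana plants. Samples came from the inoculated region at 5 days, the leaf margin at 10 and upper systemic leaves at 12.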

Values are reads per thousand in the sample; higher means more abundant, 0 means not found.
Each site shows the three plants.
"Pool" is the share in the plasmid pool used as inoculum, on the same scale.
The inoculated region was read from the minus strand, the other sites from the plus strand.
Wild type was 20.7 per thousand in the pool and the most common sequence in every sample (inoculated region 195, 198, 203; leaf margin 629, 591, 734; systemic leaves 942, 870, 868).
With 36,220-57,551 reads a sample, very low values are single reads.
The authors trace changes outside the varied positions to PCR and sequencing errors or to mutation in the plant; presence does not show that a variant is infectious alone.

{"sequence": "UAUACGUGAG", "pool": "0.327", "inoculated region": "0.122 0.0539 0.0922", "leaf margin": "0.0276 0 0.0232", "systemic leaves": "0 0 0"}
{"sequence": "UAUACGUGCG", "pool": "0.327", "inoculated region": "0.626 0.629 0.479", "leaf margin": "0.138 0.0757 0", "systemic leaves": "0 0.0202 0"}
{"sequence": "UAUACGUGGG", "pool": "0.248", "inoculated region": "0.104 0.0359 0.0553", "leaf margin": "0 0 0.0232", "systemic leaves": "0 0 0"}
{"sequence": "UAUACGUGUG", "pool": "0.314", "inoculated region": "0.0521 0.0898 0.0738", "leaf margin": "0 0 0.0464", "systemic leaves": "0 0 0.0205"}
{"sequence": "UAUACGUUAG", "pool": "0.745", "inoculated region": "0.0695 0.126 0.0922", "leaf margin": "0 0.202 0.0232", "systemic leaves": "0 0 0"}
{"sequence": "UAUACGUUCG", "pool": "0.301", "inoculated region": "0.226 0.162 0.111", "leaf margin": "0.0828 0 0", "systemic leaves": "0 0 0"}
{"sequence": "UAUACGUUGG", "pool": "0.366", "inoculated region": "0.156 0.0898 0.0369", "leaf margin": "0 0 0.0232", "systemic leaves": "0 0 0"}
{"sequence": "UAUACGUUUG", "pool": "0.431", "inoculated region": "0.191 0.0359 0.0738", "leaf margin": "0 0 0", "systemic leaves": "0 0 0"}
{"sequence": "UAUACUCGAG", "pool": "0.0131", "inoculated region": "0 0 0", "leaf margin": "0.0276 0 0", "systemic leaves": "0 0 0"}
{"sequence": "UAUCCCCGAG", "pool": "0.0131", "inoculated region": "0 0 0", "leaf margin": "0 0 0", "systemic leaves": "0 0 0"}
{"sequence": "UAUCCGAAAG", "pool": "0.157", "inoculated region": "0.139 0.0719 0.0738", "leaf margin": "0.0276 0 0", "systemic leaves": "0 0 0"}
{"sequence": "UAUCCGAACG", "pool": "0.235", "inoculated region": "0.156 0.0719 0.0922", "leaf margin": "0 0 0.0232", "systemic leaves": "0 0 0"}
{"sequence": "UAUCCGAAGG", "pool": "0.131", "inoculated region": "0.139 0.126 0.129", "leaf margin": "0 0 0", "systemic leaves": "0 0 0"}
{"sequence": "UAUCCGAAUG", "pool": "0.392", "inoculated region": "0.156 0.198 0.0738", "leaf margin": "0.0276 0 0", "systemic leaves": "0 0 0"}
{"sequence": "UAUCCGACAG", "pool": "0.353", "inoculated region": "0.209 0.180 0.0922", "leaf margin": "0 0 0", "systemic leaves": "0 0 0"}
{"sequence": "UAUCCGACCG", "pool": "0.196", "inoculated region": "0.0348 0.0539 0.0184", "leaf margin": "0 0 0", "systemic leaves": "0 0 0"}
{"sequence": "UAUCCGACGG", "pool": "0.209", "inoculated region": "0.0348 0.0898 0.0184", "leaf margin": "0 0 0.0696", "systemic leaves": "0 0 0"}
{"sequence": "UAUCCGACUG", "pool": "0.405", "inoculated region": "0.0521 0.108 0.0369", "leaf margin": "0 0 0.0464", "systemic leaves": "0 0 0"}
{"sequence": "UAUCCGAGAG", "pool": "0.170", "inoculated region": "0.122 0.180 0.0922", "leaf margin": "0 0 0", "systemic leaves": "0 0 0"}
{"sequence": "UAUCCGAGCG", "pool": "0.209", "inoculated region": "0.209 0.0539 0.0738", "leaf margin": "0 0 0", "systemic leaves": "0 0 0"}
{"sequence": "UAUCCGAGGG", "pool": "0.275", "inoculated region": "0.139 0.0719 0.0738", "leaf margin": "0 0 0", "systemic leaves": "0 0 0"}
{"sequence": "UAUCCGAGUG", "pool": "0.183", "inoculated region": "0.156 0.0719 0.166", "leaf margin": "0 0 0", "systemic leaves": "0 0 0"}
{"sequence": "UAUCCGAUAG", "pool": "0.327", "inoculated region": "0.156 0.0719 0.111", "leaf margin": "0 0 0.116", "systemic leaves": "0 0 0"}
{"sequence": "UAUCCGAUCG", "pool": "0.588", "inoculated region": "0.156 0.0359 0.0738", "leaf margin": "0 0 0", "systemic leaves": "0 0 0"}
{"sequence": "UAUCCGAUGG", "pool": "0.484", "inoculated region": "0.0869 0.126 0.111", "leaf margin": "0 0.0252 0.0232", "systemic leaves": "0 0 0.0410"}
{"sequence": "UAUCCGAUUG", "pool": "0.340", "inoculated region": "0.0869 0.0719 0.0553", "leaf margin": "0.0276 0 0", "systemic leaves": "0 0 0"}
{"sequence": "UAUCCGCAAG", "pool": "0.144", "inoculated region": "0.712 0.844 0.479", "leaf margin": "0 0.0252 0.0696", "systemic leaves": "0.0180 0.0404 0.0615"}
{"sequence": "UAUCCGCACG", "pool": "0.170", "inoculated region": "0.799 0.521 0.369", "leaf margin": "0.0276 0.151 0.0232", "systemic leaves": "0 0 0"}
{"sequence": "UAUCCGCAGG", "pool": "0.144", "inoculated region": "0.0521 0.108 0.111", "leaf margin": "0 0 0", "systemic leaves": "0 0 0"}
{"sequence": "UAUCCGCAUG", "pool": "0.0915", "inoculated region": "0.0695 0.126 0.129", "leaf margin": "0 0 0.0464", "systemic leaves": "0 0 0"}
{"sequence": "UAUCCGCCAG", "pool": "0.170", "inoculated region": "0.0521 0.0719 0.0369", "leaf margin": "0 0 0", "systemic leaves": "0 0 0"}
{"sequence": "UAUCCGCCCG", "pool": "0.301", "inoculated region": "0.139 0.108 0.0922", "leaf margin": "0 0 0", "systemic leaves": "0 0 0"}
{"sequence": "UAUCCGCCGG", "pool": "0.222", "inoculated region": "0.104 0.108 0.0553", "leaf margin": "0.0276 0 0", "systemic leaves": "0 0 0"}
{"sequence": "UAUCCGCCUG", "pool": "0.353", "inoculated region": "0.174 0.108 0.0553", "leaf margin": "0 0 0", "systemic leaves": "0 0 0"}
{"sequence": "UAUCCGCGAG", "pool": "0.144", "inoculated region": "0.191 0.287 0.314", "leaf margin": "0.138 0.126 0.0232", "systemic leaves": "0.0359 0.0202 0.0820"}
{"sequence": "UAUCCGCGCG", "pool": "0.209", "inoculated region": "0.104 0.108 0.0922", "leaf margin": "0.0276 0 0", "systemic leaves": "0 0 0"}
{"sequence": "UAUCCGCGGG", "pool": "0.327", "inoculated region": "0.156 0.0539 0.166", "leaf margin": "0 0 0", "systemic leaves": "0 0 0"}
{"sequence": "UAUCCGCGUG", "pool": "0.157", "inoculated region": "0.174 0.0898 0.0922", "leaf margin": "0 0.0252 0", "systemic leaves": "0 0 0"}

The first 3 entries again:

UAUACGUGAG (pool 0.327): inoculated region 0.122 0.0539 0.0922; leaf margin 0.0276 0 0.0232; systemic leaves 0 0 0.
UAUACGUGCG (pool 0.327): inoculated region 0.626 0.629 0.479; leaf margin 0.138 0.0757 0; systemic leaves 0 0.0202 0.
UAUACGUGGG (pool 0.248): inoculated region 0.104 0.0359 0.0553; leaf margin 0 0 0.0232; systemic leaves 0 0 0.